Results of unrelated studies side by side (data: NIAID ChemDB).

All rows: tests in culture; species: Varicella zoster virus; method: plaque count; measure: EC50

Rows are shuffled and stem from different studies. ECn: concentration that inhibits the pathogen or its effect by n%. An empty or dashed field is not shown. a–b is a range or a potency band.

structure	strain	cells	result
O=c1[nH]c(=O)n([C@H]2C[C@H](O)[C@@H](CO)O2)cc1/C=C/Br	YS/R (TK-)	HEL	20 µg/mL
O=c1[nH]c(=O)n([C@H]2C[C@H](O)[C@@H](CO)S2)cc1C1CCCC1	OKA YS	HEL	0.48 µM
Nc1ncnc2c1ncn2OCC/C=C/P(=O)(O)O	ELLEN	MRC-5	>300 µM
Nc1nc2c(ncn2[C@@H]2C=C[C@H](CO)CC2)c(=O)[nH]1	OKA (TK+)	HEL	0.6 µg/mL
Cc1cn([C@@H]2O[C@H](CO)[C@@H](O)[C@@H]2O)c(=S)[nH]c1=O	HOSEN	MRC-5	224 µM
CC#Cc1cn([C@@H]2O[C@H](COP(=O)(O)OCC)[C@@H](O)[C@@H]2O)c(=O)[nH]c1=O	G-31	MRC-5	>100 µM
Nc1nc2c(ncn2[C@H]2C=C[C@@H](CO)CC2)c(=O)[nH]1			1–10 µM
O=c1[nH]c(=O)n([C@H]2C[C@H](O)[C@@H](CO)O2)cc1C1CCCC1	OKA YS	HEL	>170 µM
CC#Cc1cn([C@@H]2O[C@H](COP(=O)(O)OCC(F)(F)F)[C@@H](O)[C@@H]2O)c(=O)[nH]c1=O	G-31	MRC-5	>100 µM
O=c1[nH]c(=O)n([C@H]2C[C@H](O)[C@@H](CO)O2)cc1F	HOSEN	MRC-5	>385 µM
Nc1ccn(C[C@@H](CO)OCP(=O)(O)O)c(=O)n1	PFA-resistant/A	HEL	0.14 µg/mL
COC(=O)[C@H](C)NP(=O)(OC[C@H]1C/C1=C\n1cnc2c(=O)[nH]c(N)nc21)Oc1ccccc1		HFF	>211 µM
Nc1ccn(OC(/C=C/P(=O)(O)O)CO)c(=O)n1	ELLEN	MRC-5	>300 µM
O=c1ccn([C@H]2C[C@H](O)[C@@H](CO)O2)c(=O)[nH]1	OKA YS	HEL	>250 µM
Nc1nccc2c1ncn2C[C@@H](CO)OCP(=O)(O)O	YS (TK+)	HEL	0.21 µM
Nc1nc(NC2CC2)c2ncn(C=C3CC3CO)c2n1		HFF	13.2 µM
CC#Cc1cn([C@@H]2O[C@H](COP(=O)(O)Oc3c(C)cccc3C)[C@@H](O)[C@@H]2O)c(=O)[nH]c1=O	G-31	MRC-5	>100 µM
Nc1ncnc2c1ncn2[C@@H]1O[C@H](CO)[C@@H](O)[C@@H]1O	13 isolates	HEL	21.6 µM
O=c1[nH]c(=O)n([C@H]2C[C@H](O)[C@@H](CO)O2)cc1I		HEL	0.99 µM
O=c1[nH]c(=O)n([C@H]2C[C@H](O)[C@@H](CO)O2)cc1/C=C/Br	OKA YS	HEL	0.004 µM
O=c1[nH]c(=O)n([C@@H]2O[C@H](CO)[C@@H](O)[C@@H]2O)cc1/C=C/Br	ACV-resistant	HEL	≥13.1 µg/mL
O=c1[nH]c(=O)n([C@@H]2O[C@H](CO)[C@@H](O)[C@@H]2F)cc1I		HEL	0.212 µM
Nc1ncnc2c1ncn2C[C@H]1COP(=O)(O)CO1	07/1 (TK-)	HEL	0.32 µM
C=Cc1cn([C@@H]2O[C@H](CO)[C@@H](O)[C@@H]2F)c(=O)[nH]c1=O		HEL	0.31 µM
COC(=O)[C@H](C)NP(=O)(OC[C@H]1C/C1=C\n1cnc2c(N)nc(N)nc21)Oc1ccccc1		HFF	>211 µM
Nc1ncnc2c1ncn2OCCOCP(=O)(O)O	ELLEN	MRC-5	>300 µM
Cc1cn([C@@H]2O[C@H](CO)[C@@H](O)[C@@H]2O)c(=O)[nH]c1=O	YS	HEL	0.82 µM
CCc1cn([C@@H]2O[C@H](CO)[C@@H](O)[C@@H]2F)c(=O)[nH]c1=O		HEL	0.48 µM
Nc1ncc2c(ncn2COC(CO)CO)n1	YS (TK+)	HEL	0.19 µM
Cc1cn([C@@H]2O[C@H](CO)[C@@H](O)[C@@H]2O)c(=O)[nH]c1=O		HEL	1.43 µM
Cc1cn([C@H]2C[C@H](O)[C@@H](CO)O2)c(=O)[nH]c1=O	OKA YS	HEL	>250 µM
Nc1ncnc2c1ncn2OC(/C=C/P(=O)(O)O)CO	ELLEN	MRC-5	>300 µM
Nc1ncnc2c1ncn2[C@@H]1O[C@H](CO)[C@H]1CO	YS/R (TK-)	HEL	1.7 µM
Nc1ncnc2c1ncn2OCC/C=C\P(=O)(O)O	ELLEN	MRC-5	>300 µM
O=c1ccn([C@H]2C[C@H](O)[C@@H](CO)S2)c(=O)[nH]1	OKA YS	HEL	35 µM
O=c1[nH]c(=O)n([C@H]2C[C@H](O)[C@@H](CO)O2)cc1-c1ccc(Cl)s1	YS (TK+)	HEL	0.17 µM
Nc1ncnc2c1ncn2CCOCP(=O)(O)O	YS	HEL	23.7 µM
O=c1[nH]c(=O)n([C@@H]2O[C@H](CO)[C@@H](O)[C@@H]2O)cc1C=C(Br)Br		HEL	18.8 µM
Nc1nc2c(ncn2[C@@H]2O[C@H](CO)[C@H]2CO)c(=O)[nH]1	07/1 (TK-)	HEL	3 µM
Nc1nc2c(ncn2C=C2CC2CO)c(=O)[nH]1			10–100 µM
CC#Cc1cn([C@@H]2O[C@H](COP(=O)(O)Oc3ccccc3)[C@@H](O)[C@@H]2O)c(=O)[nH]c1=O	G-31	MRC-5	>100 µM
CCc1cn([C@@H]2O[C@H](CO)[C@@H](O)[C@@H]2O)c(=O)[nH]c1=O		HEL	>588 µM
Nc1ccn(C[C@@H](CO)OCP(=O)(O)O)c(=O)n1	YS	HEL	0.65 µM
O=C(O)CP(=O)(O)O	PMEDAP-resistant	HEL	16.6 µg/mL
C[C@@H]1CC[C@H]2[C@@H](C)C(=O)O[C@@H]3OC4(C)CC[C@@H]1[C@]32OO4	OKA	HEL	>50 µg/mL
O=c1[nH]c(=S)n([C@H]2C[C@H](O)[C@@H](CO)O2)cc1I	HOSEN	MRC-5	3.63 µM
O=c1[nH]c(=O)n([C@H]2C[C@H](O)[C@@H](CO)O2)cc1C1CCC1	OKA YS	HEL	>170 µM
Nc1nc2c(ncn2OCC/C=C\P(=O)(O)O)c(=O)[nH]1	ELLEN	MRC-5	>300 µM
Cc1cn([C@@H]2O[C@H](CO)[C@@H](O)[C@@H]2O)c(=O)[nH]c1=O	OKA (TK+)	HEL	0.15 µM